Test results taken from PMC9015526 (Chemmedchem, 2022).
One purity is given for all peptides; the source may state it once. HELM strings list residues between dots; [ac] is acetyl, [am] amide, other brackets name non-standard units.

Test: peptide synthesis
Conditions: whole synthesis, HPLC analysis; SPE-MS

Final HPLC purity, >90%:
VVTTKIALKGG/KIVNNWLK
Ac-VTNNTFTLKGG
VTRELMRELNGG/AYTRYVDN
PEPTIDE1{V.T.N.N.T.F.T.L.K.G.G.A.P.T.K.V.T.F.G.D.[am]}$$$$V2.0
